From ChEMBL document CHEMBL1131003, “Nonsymmetric P2/P2' cyclic urea HIV protease inhibitors. Structure-activity relationship, bioavailability, and resistance profile of monoindazole-substituted P2 analogues” (J Med Chem, 1998)

Experiments:
[1] = biological target: Human immunodeficiency virus type 1 protease (Human immunodeficiency virus 1) (UniProt Q72874); assay: Antiviral activity against mutant virus HIV-1 mutant (84V) strain; format: functional
Summary of the method: (§1)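 I84V single and I84V/V82F double mutant HIV-1, both from in vitro selection under a cyclic urea inhibitor. IC90 measured by yield reduction assay.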

[2] = biological target: Human immunodeficiency virus type 1 protease (Human immunodeficiency virus 1) (UniProt Q72874); assay: Antiviral activity against mutant virus HIV-1 mutant (84V/82F) strain; format: functional; summary of the method: as §1

Molecule `N=C(NO)c1cccc(CN2C(=O)N(Cc3cccc(/C(N)=N/O)c3)[C@H](CCc3ccccc3)[C@@H](O)[C@H]2Cc2ccccc2)c1` has an IC90 mutant/IC90 WT [1] of 1 and an IC90 mutant/IC90 WT [2] of 0.4.
